Test: xn = mol fraction of the nth substance listed

CCC[N+]1(C)CCCC1.N#C[N-]C#N + O=S(=O)(F)[N-]S(=O)(=O)F.[Na+]
101.3 kPa, frequency 3 MHz, x1 = 0.19
Settings | electrical conductivity [S/m]
252.85 K | 0.16
302.55 K | 1.44
342.65 K | 3.42

Settings | viscosity [mPa·s]
293.15 K, 101.3 kPa, x1 = 0.19 | 42

CCC[N+]1(C)CCCCC1.O=S(=O)(F)[N-]S(=O)(=O)F + CCC[N+]1(C)CCCCC1.O=S(=O)([N-]S(=O)(=O)C(F)(F)F)C(F)(F)F
101.3 kPa
Settings | viscosity [mPa·s]
288.15 K, x2 = 0 | 74
288.15 K, x2 = 0.6 | 129
293.15 K, x2 = 0.6 | 101
298.15 K, x2 = 0.8 | 104
308.15 K, x2 = 0.2 | 40.6
308.15 K, x2 = 0.4 | 47.3
313.15 K, x2 = 0.6 | 43.9
343.15 K, x2 = 0.2 | 15.7

CCC[N+]1(C)CCCCC1.O=S(=O)([N-]S(=O)(=O)C(F)(F)F)C(F)(F)F + CCC[N+]1(C)CCCCC1.O=S(=O)(F)[N-]S(=O)(=O)F
101.3 kPa, x1 = 1
Settings | viscosity [mPa·s]
283.15 K | 397
288.15 K | 277
353.15 K | 17.3

CCC[N+]1(C)CCCCC1.O=S(=O)(F)[N-]S(=O)(=O)F + CCCC[N+]1(C)CCCC1.O=S(=O)(F)[N-]S(=O)(=O)F
101.3 kPa
Settings | viscosity [mPa·s]
288.15 K, x1 = 0.6 | 83
293.15 K, x1 = 0.2 | 93
293.15 K, x1 = 0.6 | 68
298.15 K, x1 = 0.6 | 56
298.15 K, x1 = 0.8 | 55
303.15 K, x1 = 0.2 | 62
303.15 K, x1 = 0.4 | 50
313.15 K, x1 = 1 | 31.8
318.15 K, x1 = 0.6 | 29.6
328.15 K, x1 = 0.4 | 23.4
333.15 K, x1 = 0.8 | 19.8
333.15 K, x1 = 1 | 18.9
343.15 K, x1 = 0.2 | 19.1
348.15 K, x1 = 1 | 13.7

CC[N+]1(C)CCCC1.O=S(=O)(F)[N-]S(=O)(=O)F + O=S(=O)(F)[N-]S(=O)(=O)F.[Na+]
101 kPa
Settings | electrical conductivity [S/m] | viscosity [mPa·s]
293 K, x2 = 0.3 | 0.138 | –
293 K, x2 = 0.4 | 0.07 | –
313 K, x2 = 0.3 | 0.355 | 97.2
323 K, x2 = 0.7 | 0.05 | 1040
333 K, x2 = 0.3 | 0.679 | 46.9
343 K, x2 = 0.3 | 0.891 | 34.5
343 K, x2 = 0.5 | 0.451 | 102
353 K, x2 = 0.4 | 0.832 | 43.1
363 K, x2 = 0.3 | 1.4 | 20.5
363 K, x2 = 0.4 | 1.09 | 33.3
373 K, x2 = 0.4 | 1.37 | 26.4
373 K, x2 = 0.6 | 0.739 | 55.6
403 K, x2 = 0.5 | 2.11 | 19.4

Source: the CheMixHub ionic liquid set
